Measurements reported in US20190100761A1, “COMPOSITIONS AND METHODS FOR ENHANCED GENE EXPRESSION AND VIRAL REPLICATION” (priority 2016, published 2019).

Experiments:
HIV-1 [1] = assay type: cell-based; details: for positive effect on p55 Gag expression / increase in HIV-1 p24 capsid expression: overexpression in 293T cells; for positive effect on p55 Gag expression: 24 hpi; for increase in HIV-1 p24 capsid expression: 48 hpi
HIV-1 NL4-3 = assay type: cell-based
IAV strain PR8 = assay type: cell-based, influenza A virus
HIV-1 [2] = assay type: cell-based; details: overexpression in 293T cells, 48 hpi

Substance | effect on viral gene expression (HIV-1 [1]) | positive effect on p55 Gag expression (HIV-1 [1]) [fold] | increase in HIV-1 p24 capsid expression (HIV-1 [1]) [fold] | replication of HIV-1 (p24 ELISA) (HIV-1 NL4-3; CEM-SS Y2-OE subclone overexpressing YTHDF2 ~2-fold vs control CEM-SS) | HIV-1 Gag and Nef expression (HIV-1 NL4-3; CEM-SS Y2-OE subclone, Western at 72 hpi vs control CEM-SS) | expression of the viral NS1 and M2 proteins (IAV strain PR8) | increase in infectious IAV (plaque assay on MDCK cells) (IAV strain PR8) [fold] | enhancement of HIV-1 gRNA expression (HIV-1 [2]) [fold]
YTHDF1: human cytoplasmic m^6A reader protein YTH-domain containing family 1, SEQ ID NO: 4, overexpressed in cells | more minor positive effect |  |  |  |  |  |  | 
YTHDF2: human cytoplasmic m^6A reader protein, SEQ ID NO: 5, overexpressed in cells |  | ~6 | ~4 | significant enhancement | substantially higher level | substantially higher level | ~10 | ~6
YTHDF3: human cytoplasmic m^6A reader protein, SEQ ID NO: 6, overexpressed in cells |  | ~5 | ~4 |  |  |  |  | ~6
